Article doi:10.1101/2023.04.28.538747

Target: Recombinant mouse ACE2-Fc protein (mouse) (UniProt Q8R0I0)
Experiment: BLI

## SARS-CoV-2 BA.5.5 RBD protein (from UniProt P0DTC2) (domain or fragment)
  Kd: 121 nM
